Measured values from several laboratories, pooled; numbers as filed in NIAID ChemDB.

Shared fields: growth or infection tests; organism: Mycobacterium tuberculosis

Lines come from different laboratories, so protocols vary.

smiles,strain or isolate,method,endpoint,dose,result
Cc1ccc(-c2cn3nc(C(F)(F)F)sc3n2)cc1,H37Rv,-,MIC,-,40 µg/mL
COc1cc(C(=O)NNC(=O)c2ccc(Cl)c(Cl)c2)cc(OC)c1OC,H37Rv,BACTEC,inhibition,12.5 µg/mL,-16%
CC(C)CN=c1cc2n(-c3ccc(Cl)cc3)c3ccccc3nc-2cc1Nc1ccc(Cl)cc1,H37Rv,-,MIC,-,0.5 µg/mL
O=C(O)c1cn(C2CC2)c2cc(N3CCN(C(=O)c4ccco4)CC3)c(F)cc2c1=O,ATCC35801,-,MIC,-,3.68 µM
COc1cc(-c2cn3nc(S(N)(=O)=O)sc3n2)cc(OC)c1OC,H37Rv,-,MIC,-,>6.25 µg/mL
CCn1cc(C(=O)O)c(=O)c2cc(F)c(N3CCNCC3)nc21,10 strains,-,MIC,-,2 µg/mL
c1ccc(C(CCNCCN[C@H]2C[C@@H]3CC[C@H]2C3)c2ccccc2)cc1,H37Rv,-,MIC,-,1 µM
COC(=O)[C@]12OC[C@@]34[C@@H](CC5=C(C)C(=O)C(O)=C[C@]5(C)[C@H]3[C@@H](O)[C@@H]1O)OC(=O)[C@H](OC(=O)c1ccccc1)[C@@H]24,H37Rv,-,inhibition,12.5 µg/mL,8%
CC[C@H]1C[C@H]2C[C@H]3c4[nH]c5ccc(OC)cc5c4CCN(C2)[C@@H]13,H37Rv,-,MIC,-,50 µg/mL
COC(=O)c1cc(=O)nc(NNC(C)=O)s1,H37Rv,BACTEC,inhibition,12.5 µg/mL,24%
Cc1ccc2c(c1)c1c3n2CCN(C(=O)CCC(=O)O)C3CCC1,H37Rv,-,MIC,-,32 µg/mL
[N-]=[N+]=NCCCCCCCCN1C(=O)C(=O)c2cc(F)ccc21,MC2 6230,-,MIC99,-,164 µM
O=C(N/N=C/c1ccccc1[N+](=O)[O-])c1cc(-c2ccc(Cl)cc2)n[nH]1,H37Rv,broth dilution,MIC,-,0.39 µg/mL
Cc1nc(NC(=O)C(C)(C)C)sc1[N+](=O)[O-],H37Rv,BACTEC,inhibition,12.5 µg/mL,8%
Cc1ccc2c(c1)c1c3n2CCN(CC(O)CN)C3CCC1,H37Rv,-,MIC,-,32 µg/mL
CC1=NN(C(=O)NS(=O)(=O)c2ccc(CCNC(=O)c3nccnc3N)cc2)C(C)(C)C1,H37Rv,BACTEC,inhibition,12.5 µg/mL,20%
CCCN=c1cc2n(-c3ccc(Cl)cc3)c3ccccc3nc-2cc1Nc1ccc(Cl)cc1,H37Rv,-,MIC,-,0.5 µg/mL
CO[C@H]1/C=C/O[C@@]2(C)Oc3c(C)c(O)c4c(O)c(c5[nH]c(-c6ccccc6)nc5c4c3C2=O)NC(=O)/C(C)=C\C=C\[C@H](C)[C@H](O)[C@@H](C)[C@@H](O)[C@@H](C)[C@H](OC(C)=O)[C@@H]1C,H37Rv,BACTEC,MIC,-,0.2 µg/mL
COC1=C[C@@H](C)[C@@H]2C[C@H]3OC(=O)C[C@]4(O)[C@@]3(C)[C@H]([C@H](O)[C@@H](OC)[C@@]4(C)O)[C@@]2(C)C1=O,H37Rv,-,inhibition,12.5 µg/mL,5%
CC1COc2c(N3CCN(C)CC3)c(F)cc3c(=O)c(C(=O)O)cn1c23,-,-,MIC90,-,6.25 µg/mL
OC1CO[C@@H]2C[C@H](Nc3ccccn3)O[C@H]12,H37Rv,resazurin,inhibition,6.25 µg/mL,-11%
O=[n+]1c(CO)c(CO)n([O-])c2ccccc21,H37Rv,-,MIC,-,31.2 µg/mL
CN(C)/C=N/S(=O)(=O)c1nn2c(/C=N/N=C(N)N)c(-c3ccc(Cl)cc3)nc2s1,H37Rv,-,MIC,-,>6.25 µg/mL
COc1ccc2ccc(=O)oc2c1CC(=O)C(C)C,H37Rv,-,MIC,-,200 µg/mL
CCOC(=O)CC1=NN=C(N)SC1,H37Rv,resazurin,inhibition,6.25 µg/mL,45%
COc1c(N2CCNC(C)C2)c(F)cc2c(=O)c(C(=O)O)cn(C3CC3)c12,ATCC35801,-,MIC,-,1.04 µM
CCC(CO)NCCNC1CCC1,H37Rv,-,MIC,-,150 µM
Cc1ccc2c(c1)c1c3n2CCN(C(=O)/C=C/C(=O)O)C3CCC1,ATCC 607,-,MIC,-,125 µg/mL
O=C(NN1C(=O)CSC1c1ccccc1O)c1cc(-c2ccc(Cl)cc2)n[nH]1,H37Rv,broth dilution,MIC,-,0.35 µg/mL
[N-]=[N+]=NCCCCCCCCN1C(=O)C2(OCCO2)c2cc(F)ccc21,MC2 6230,-,MIC99,-,144 µM
O=C(c1ccccc1)c1c(CO[N+](=O)[O-])n([O-])c2ccccc2[n+]1=O,H37Rv,BACTEC,MIC bound,-,≤12.5 µg/mL
COC1=C[C@@H](C)[C@@H]2C[C@H]3OC(=O)C[C@H]4C(C)=C(OC)C(=O)[C@H]([C@@]2(C)C1=O)[C@@]34C,H37Rv,-,inhibition,12.5 µg/mL,7%
NC(=S)Cc1ccncc1,-,resazurin,MIC bound,-,>6.25 µg/mL
CCn1cc(C(=O)O)c(=O)c2cc(F)c(N3CCNCC3)cc21,10 strains,-,MIC,-,2 µg/mL
CC(C)(C)NC(=O)C1c2ccccc2CCN1c1cc2c(cc1[N+](=O)[O-])c(=O)c(C(=O)O)cn2C1CC1,ATCC35801,-,MIC,-,3.27 µM
CN1C(=O)c2ccccc2Cc2c(Cl)ncnc21,H37Rv,BACTEC,MIC bound,-,>12.5 µg/mL
C[C@@H]1C[C@@H]2OC(=O)[C@]3(C)[C@H]2[C@@H](OC3(C)O)[C@]2(C)C(=O)C=C[C@@H]12,H37Rv,-,MIC,-,128 µg/mL
[N-]=[N+]=NCCCCN1C(=O)C(=O)c2ccccc21,MC2 6230,-,MIC99,-,>410 µM
COc1c(O)cc2oc3cc(O)c(CC=C(C)C)c(O)c3c(=O)c2c1CC=C(C)C,H37Rv,BACTEC,MIC,-,4 µg/mL
C=C(CO)[C@@H]1CC[C@@]2(C)[C@H](O)CC=C(C)[C@@H]2[C@H]1O,H37Rv,-,MIC,-,>128 µg/mL
OC(COc1ccc2c(c1)CCC2)Cn1cnc2ccccc21,H37Rv,fluorescence,EC50,-,0.22 µM
O=C(c1ccccc1)N1N=C(c2ccc(Cl)cc2)CC1c1cn(-c2ccccc2)nc1-c1ccc(F)cc1,H37Rv,BACTEC / radiometric,EC90,-,>192 µM
COC(=O)Nc1ccc(S(=O)(=O)N2CCn3c4c(c5cc(C)ccc53)CCCC42)cc1,H37Rv,-,MIC,-,500 µg/mL
CCC1CCCCN1CCNC/C=C(\C)CCC=C(C)C,H37Rv,-,MIC,-,1 µM
O=C(NN1C(=O)CSC1c1ccccc1[N+](=O)[O-])c1cc(-c2ccc(Cl)cc2)n[nH]1,-,broth dilution,MIC,-,1.9 µg/mL
Cc1ccc2c(c1)c1c3n2CCN(CC(O)CNCc2ccccc2)C3CCC1,H37Rv,-,MIC,-,4 µg/mL
c1ccc(C(CCNCCNCC23CC4CC(CC(C4)C2)C3)c2ccccc2)cc1,H37Rv,-,MIC,-,0.5 µM
COC(=O)[C@]12OC[C@@]34[C@@H](CC5=C(C)C(=O)C(O)=C[C@]5(C)[C@H]3[C@@H](O)[C@@H]1O)OC(=O)[C@H](OC(=O)/C=C(\C)C(C)C)[C@@H]24,H37Rv,-,inhibition,12.5 µg/mL,15%
O=C1OCCS1,H37Rv,BACTEC,MIC bound,-,>12.5 µg/mL
C=C1C(=O)O[C@@H]2/C=C(\C)CC/C=C(\C)CC[C@@H]12,H37Rv,-,MIC,-,32 µg/mL
CN1CC(=O)N(C(=O)c2ccccc2)C1=N,H37Rv,BACTEC,inhibition,12.5 µg/mL,15%
CN1CCN(c2c(F)cc3c(=O)c(C(=O)O)cn(CCF)c3c2F)CC1,10 strains,-,MIC,-,2 µg/mL
Cc1ccc2c(c1)c1c3n2CCN(C=O)C3CCC1,ATCC 607,-,MIC,-,64 µg/mL
Cc1cc(N)c(C(=O)NN)cc1C,H37Rv,BACTEC,MIC,-,≥12.5 µg/mL
Nc1nc(-c2cccc([N+](=O)[O-])c2)cc(-c2cn(-c3ccccc3)nc2-c2ccc(F)cc2)n1,H37Rv,BACTEC / radiometric,EC90,-,>220 µM
NC(=O)c1c(Cl)nc(-c2cccc([N+](=O)[O-])c2)c([N+](=O)[O-])c1C(F)(F)F,H37Rv,BACTEC,MIC,-,≥12.5 µg/mL
C[C@@H]1CC[C@]2(C(=O)O)CC[C@]3(C)C(=CC[C@@H]4[C@@]5(C)C[C@H](O)[C@H](O)C(C)(C)[C@@H]5CC[C@]43C)[C@@H]2[C@]1(C)O,H37Rv,-,MIC,-,>128 µM
Oc1ccc(-c2cc(-c3cn(-c4ccccc4)nc3-c3ccc(F)cc3)[nH]c(=S)n2)cc1,H37Rv,BACTEC / radiometric,EC90,-,>227 µM
O=c1n(-c2ccccc2)c(=O)n2c(=O)n(-c3ccccc3)c(=O)n12,H37Rv,resazurin,inhibition,6.25 µg/mL,-8%
Cc1ccc2c(c1)c1c3n2CCNC3CCC1,H37Rv,-,MIC,-,8 µg/mL
Cc1c(C)[n+](=O)c2ccc(F)cc2n1[O-],H37Rv,-,MIC,-,125 µg/mL
CC1(C)CC[C@]2(C(=O)O)CC[C@]3(C)C(=CC[C@@H]4[C@@]5(C)CC[C@H](O)C(C)(C)[C@@H]5CC[C@]43C)[C@@H]2C1,H37Rv,-,MIC,-,64 µM
CC1=NC(C(=O)O)C(=O)O1,H37Rv,BACTEC,inhibition,12.5 µg/mL,4%
C[C@@H]1[C@H]2C[C@@H](C[C@H]1NCCNCC(c1ccccc1)c1ccccc1)C2(C)C,H37Rv,-,MIC,-,1 µM
COC(=O)[C@]12OC[C@]34[C@H]([C@@H](O)[C@@H]1O)[C@@]1(C)C(=O)C(O)=C[C@@H](C)[C@@H]1C[C@H]3OC(=O)[C@H](OC(=O)/C=C(\C)C(C)C)[C@@H]24,H37Rv,-,inhibition,12.5 µg/mL,3%
C[P+]1(C)CCc2c1ccc1ccccc21,H37Rv,resazurin,MIC bound,-,<6.25 µg/mL
COc1cccc(OC)c1[C@H]1[C@H]([N+](=O)[O-])C2CCCN2[C@@]12C(=O)Nc1ccccc12,H37Rv,agar,MIC,-,>25 µg/mL
NS(=O)(=O)c1nn2cc(-c3ccc(F)cc3)nc2s1,H37Rv,-,MIC,-,50 µg/mL
CC(=O)c1ccc2c(c1)N(CCCN(C)C)c1ccccc1S2,H37Rv,BACTEC,inhibition,12.5 µg/mL,-3%
O=C(O)c1cn(C2CC2)c2cc(N3CCC(O)(c4ccc(Cl)cc4)CC3)c([N+](=O)[O-])cc2c1=O,ATCC35801,-,MIC,-,0.42 µM
O=C(c1ccccc1)N1N=C(c2ccc([N+](=O)[O-])cc2)CC1c1cn(-c2ccccc2)nc1-c1ccc(F)cc1,H37Rv,BACTEC / radiometric,EC90,-,>187 µM
[N-]=[N+]=NCCCCCN1C(=O)C(=O)c2cc(Cl)ccc21,MC2 6230,-,MIC99,-,171 µM
Cc1c(C(N)=O)[n+](=O)c2ccccc2n1[O-],H37Rv,-,MIC,-,1 µg/mL
NNC(=O)c1ccncc1,19 isolates drug-susceptible,-,MIC,-,0.1 µg/mL
O=C(N/N=C/NN/C=N/NC(=O)C1CCS(=O)(=O)C1)C1CCS(=O)(=O)C1,H37Rv,BACTEC,inhibition,12.5 µg/mL,-5%
CCC(CO)NCCN[C@@H](CC)CO,H37Rv,-,MIC,-,300 µM
Cc1ccc2c(c1)c1c3n2CCN(CC(O)CNCCCCN(C)C)C3CCC1,H37Rv,-,MIC,-,16 µg/mL
[N-]=[N+]=NCCCCCN1C(=O)C(=O)c2ccccc21,MC2 6230,-,MIC99,-,>387 µM
CC[C@@H]1C(=O)OC[C@@H]1Cc1cncn1C,H37Rv,-,MIC,-,>100 µg/mL
CC(C)N=c1cc2n(-c3ccccc3)c3ccccc3nc-2cc1Nc1ccccc1,H37Rv,-,MIC,-,1 µg/mL
CCOC(=O)c1c(C)n([O-])c2ccccc2[n+]1=O,H37Rv,-,MIC,-,31.2 µg/mL
CC(C)=CC(=O)O[C@H]1C(=O)O[C@@H]2C[C@H]3[C@H](C)C(=O)C(O[C@@H]4O[C@H](CO)[C@@H](O)[C@H](O)[C@H]4O)=C[C@]3(C)[C@H]3[C@@H](O)[C@H](O)C4(C(=O)O)OC[C@]32[C@@H]14,H37Rv,-,EC50,-,>12.5 µg/mL

The last 9 rows once more:

smiles	strain or isolate	method	endpoint	dose	result
NNC(=O)c1ccncc1	19 isolates drug-susceptible	-	MIC	-	0.1 µg/mL
O=C(N/N=C/NN/C=N/NC(=O)C1CCS(=O)(=O)C1)C1CCS(=O)(=O)C1	H37Rv	BACTEC	inhibition	12.5 µg/mL	-5%
CCC(CO)NCCN[C@@H](CC)CO	H37Rv	-	MIC	-	300 µM
Cc1ccc2c(c1)c1c3n2CCN(CC(O)CNCCCCN(C)C)C3CCC1	H37Rv	-	MIC	-	16 µg/mL
[N-]=[N+]=NCCCCCN1C(=O)C(=O)c2ccccc21	MC2 6230	-	MIC99	-	>387 µM
CC[C@@H]1C(=O)OC[C@@H]1Cc1cncn1C	H37Rv	-	MIC	-	>100 µg/mL
CC(C)N=c1cc2n(-c3ccccc3)c3ccccc3nc-2cc1Nc1ccccc1	H37Rv	-	MIC	-	1 µg/mL
CCOC(=O)c1c(C)n([O-])c2ccccc2[n+]1=O	H37Rv	-	MIC	-	31.2 µg/mL
CC(C)=CC(=O)O[C@H]1C(=O)O[C@@H]2C[C@H]3[C@H](C)C(=O)C(O[C@@H]4O[C@H](CO)[C@@H](O)[C@H](O)[C@H]4O)=C[C@]3(C)[C@H]3[C@@H](O)[C@H](O)C4(C(=O)O)OC[C@]32[C@@H]14	H37Rv	-	EC50	-	>12.5 µg/mL

MIC50, MIC90 and the like: level of inhibition, or share of isolates inhibited. Inhibition is in % at the dose shown (toxicity tests: loss of growth or viability). Blank or dashed fields: not listed here. MIC bound comes from a single tested concentration. ECn: concentration that inhibits the pathogen or its effect by n%.